From US8361473B2, “Antibodies and their uses for diagnosis and treatment of cytomegalovirus infection and associated diseases” (priority 2007, dated 2013)

Test system: HLA-A2/pp65 495-503 complexes in fibroblasts infected with CMV AD169 or RV798
Assay: Kinetic flow cytometry of HLA-A2/pp65 complex expression, intracellular and extracellular staining
Format: cell-based, human
Conditions: inside or on the surface, 120 hours

B1: H9 IgG Ab: whole IgG molecule made from recombinant H9 Fab, produced in HEK293 cells (antibody)
heavy: EVQLVQSGAEVKKPGSSVKVSCKASGGTFSSYAISWVRQAPGQGLEWMGGIIPIFGTANYAQKFQGRVTITADESTSTAYMELSSLRSEDTAVYYCARGDLYYYDSSGYPRYYFDYWGQGTLVTVSSASTKGPSVFPLAPSSKSTSGGTAALGCLVKDYFPEPVTVSWNSGALTSGVHTFPAVLQSSGLYSLSSVVTVPSSSLGTQTYICNVNHKPSNTKVDKKVEPKSC
light: LETTLTQSPGTLSLSPGERATLSCRASQSVSSSYLAWYQQKPGQAPRLVIYGASSRATGIPDRFSGSGSGTDFTLTISRLEPEDFAVYYCQHYSTSPGFTFGQGTKLEIRRTVAAPSVFIFPPSDEQLKSGTASVVCLLNNFYPREAKVQWKVDNALQSGNSQESVTEQDSKDSTYSLSSHQGLSSPVTKSFNRGEC
modifications: left off: a dimerising Fc or GST
reactivity with HLA-A2 negative fibroblasts infected with wild-type CMV: no reactivity
